A mixed list of measured activities; the numbers were collected in NIAID ChemDB.

Common to all: whole-cell or culture tests; agent: Mycobacterium tuberculosis

a–b is a range or a potency band. Rows are shuffled and stem from different studies. An empty or dashed field is not shown. MIC bound: limit read from a one-dose screen. ECn: concentration that inhibits the pathogen or its effect by n%. MIC50, MIC90 and the like: level of inhibition, or share of isolates inhibited. Percent inhibition refers to the dose given; in toxicity tests it is the harm to the cells.

smiles | tested at | cells | method | read-out | changes | strain or isolate | value
NC1[C@H]2CN(c3nc4c(cc3F)c(=O)c(C(=O)O)cn4-c3ccc(F)cc3F)C[C@@H]12 | - | - | - | MIC50 | - | 250 isolates | 32 µg/mL
CSc1nc(C#N)c(N)n1C | 12.5 µg/mL | - | BACTEC | inhibition | - | H37Rv | 0%
C/C=C/c1ccc2c(c1)[C@@H](C)[C@H](c1ccc(OC)cc1)O2 | - | - | resazurin / absorbance | MIC | - | Clinical isolate 4851 | 7.8 µg/mL
Clc1ccc2c(-c3ccccc3)cc(N3CCOCC3)nc2n1 | - | - | - | MIC | - | H37Rv | >6.25 µg/mL
CC1=N/C(=C/c2ccc(-c3ccccc3)cc2)C(=O)O1 | - | - | BACTEC | MIC bound | - | H37Rv | >12.5 µg/mL
CCc1nc2ccc(C)cn2c1C(=O)NCc1ccc2c(c1)CCO2 | - | - | resazurin | MIC90 | - | H37Rv | <2 µM
NC[C@H]1O[C@H](O[C@H]2[C@H](O)[C@@H](O[C@H]3O[C@H](CO)[C@@H](O)[C@H](N)[C@H]3O)[C@H](N)C[C@@H]2N)[C@H](O)[C@@H](O)[C@@H]1O | - | - | - | Mean MIC | - | H37Ra | 3.13 µg/mL
Cc1cn2c(C(=O)NCc3ccc(N4CCS(=O)(=O)CC4)cc3)c(C)nc2s1 | - | - | resazurin | MIC90 | - | H37Rv | 2–10 µM
CCCCCCCCS(=O)(=O)CC(N)=O | - | - | - | MIC | - | 7D5245 | ≤6.25 µg/mL
CCOc1ccc2c(N/N=C/c3ccc(OC)c4ccccc34)ccnc2c1 | - | VERO | - | MIC | - | H37Rv | 6.25 µg/mL
N/C(=N\N=C\c1cccc(F)c1)c1ccncc1 | - | - | - | MIC | - | 1481 | 64 µg/mL
NNC(=O)c1ccncc1 | - | - | resazurin | MIC | - | MDR | 25–50 µg/mL
CCOc1ccc2c(N/N=C/c3ccc(N(CC)CC)cc3)cc(C)nc2c1 | - | VERO | - | MIC | - | H37Rv | 12.5 µg/mL
c1ccc(-c2cc3ccc(N4CCNCC4)nc3nc2N2CCNCC2)cc1 | - | - | - | MIC | - | H37Rv | >6.25 µg/mL
CN=C(N)N/N=C(\C)c1ccc2oc3ccc(/C(C)=N/NC(N)=NC)cc3c2c1 | - | - | BACTEC | MIC bound | - | H37Rv | >12.5 µg/mL
C[C@@H]1CN(c2c(F)c(N)c3c(=O)c(C(=O)O)cn(C4CC4)c3c2F)C[C@H](C)N1 | - | - | - | Mean MIC | - | H37Ra | 0.084 µg/mL
O=C(c1cccc(Cl)c1)c1c(O)c2ccccc2oc1=O | 12.5 µg/mL | - | BACTEC | inhibition | - | H37Rv | 14%
CCN1CCN(c2cc(-c3ccccc3)c3ccc(N)nc3n2)CC1 | - | - | - | MIC | - | H37Rv | >6.25 µg/mL
CC1COc2c(N3CCN(C)CC3)c(F)cc3c(=O)c(C(=O)O)cn1c23 | - | - | - | Mean MIC | - | 206 isolates (susceptible) | 0.842 µg/mL
Cc1ccc2nc(C)c(C(=O)NCc3cccc(S(F)(F)(F)(F)F)c3)n2c1 | - | - | resazurin | MIC90 | - | H37Rv | <2 µM
CCn1cc(C(=O)O)c(=O)c2cc(F)c(N3CCNCC3)cc21 | - | - | - | MIC | - | 10 isolates | 15.6–31.2 µg/mL
Clc1ccc2c(-c3ccccc3)cc(N3CCNCC3)nc2n1 | 6.25 µg/mL | - | - | inhibition | - | H37Rv | 70%
OC(COc1ccc2c(c1)CCC2)Cn1cnc2ccccc21 | - | - | fluorescence | EC50 | - | H37Rv | 0.22 µM
O=C(CCl)OCCN1Cc2nc3sc4c(c3c(=O)n2CC1=O)CCCC4 | 12.5 µg/mL | - | BACTEC | inhibition | - | H37Rv | 41%
CC1=C(C(=O)Nc2ccccc2C)C(c2cccc([N+](=O)[O-])c2)C(C(=O)Nc2ccccc2C)=C(C)N1 | - | - | - | MIC | - | H37Rv | >12.5 µg/mL
CCc1ccc(C(=O)N/N=C(\C)[C@]2(O)Cc3c(O)c4c(c(O)c3[C@H](O[C@H]3C[C@H](N)[C@H](O)[C@H](C)O3)C2)C(=O)c2c(OC)cccc2C4=O)cc1 | 12.5 µg/mL | - | BACTEC | inhibition | - | H37Rv | 95%
CO[C@H]1/C=C/O[C@@]2(C)Oc3c(C)c(O)c4c(O)c(c(/C=N/N5CCN(C)CC5)c(O)c4c3C2=O)NC(=O)/C(C)=C\C=C\[C@H](C)[C@H](O)[C@@H](C)[C@@H](O)[C@@H](C)[C@H](OC(C)=O)[C@@H]1C | - | - | resazurin | MIC | - | H37Ra | 0.1 µg/mL
NNC(=O)c1ccncc1 | - | - | - | MIC | - | - | 0.16 µg/mL
Cc1cc(-c2c(Br)cc(C(=O)O)n2C)on1 | - | - | BACTEC | MIC bound | - | H37Rv | >6.25 µg/mL
CO[C@@]1(NC(=O)Cc2cccs2)C(=O)N2C(C(=O)O)=C(COC(N)=O)CS[C@@H]21 | - | - | - | MIC | - | Isolate 3 | >16 µg/mL
CC(=O)C(NC(=O)C(C)C(O)C(C)NC(=O)C(NC(=O)c1nc(C(CC(N)=O)NCC(N)C(N)=O)nc(N)c1C)C(OC1OC(CO)C(O)C(O)C1(C)OC1OC(CO)C(O)C(O)(C(N)=O)C1O)c1cnc[nH]1)C(=O)NCCC1=NC(c2nc(C(N)=O)cs2)CS1 | - | - | BACTEC | MIC | - | H37Rv | 0.01 µg/mL
N/C(=N\N=C\c1ccc(Cl)cc1)c1ccncc1 | - | - | - | MIC | - | 1481 | 64 µg/mL
C=CCOc1cc(NC(=S)c2sccc2C)ccc1Cl | 12.5 µg/mL | - | BACTEC | inhibition | - | H37Rv | 98%
Clc1ccc2c(-c3ccccc3)cc(N3CCN(c4ccccc4)CC3)nc2n1 | 6.25 µg/mL | - | - | inhibition | - | H37Rv | 55%
Cc1ccc(NCCCN2CCN(CCCNc3ccc(C)c4sc5ccccc5c(=O)c34)CC2)c2c(=O)c3ccccc3sc12 | - | - | BACTEC | MIC bound | - | H37Rv | >12.5 µg/mL
CC1=C(C(=O)Nc2ccc([N+](=O)[O-])cc2)C(c2ccccc2)C(C(=O)Nc2ccc([N+](=O)[O-])cc2)=C(C)N1 | - | - | - | MIC | - | H37Rv | >12.5 µg/mL
CN[C@@H]1[C@H](O[C@H]2[C@H](O[C@H]3[C@H](O)[C@@H](O)[C@H](N=C(N)N)[C@@H](O)[C@@H]3N=C(N)N)O[C@@H](C)[C@]2(O)C=O)O[C@@H](CO)[C@H](O)[C@H]1O | - | - | - | Median MIC | - | H37Ra | 0.94 µg/mL
C/C=C/c1ccc2oc(-c3ccc(O)c(OC)c3)c(C)c2c1 | - | - | resazurin / absorbance | MIC | isoniazid and streptomycin resistant | Clinical isolate 91 | 7.8 µg/mL
N/C(=N\N=C\c1ccc(Cl)c(Cl)c1)c1ccncc1 | - | - | - | MIC | - | 1342 | >256 µg/mL
NC(=O)N/N=C/c1ccc([N+](=O)[O-])s1 | - | - | resazurin | MIC bound | - | H37Rv | >6.25 µg/mL
O=C(Cc1cccs1)N[C@@H]1C(=O)N2C(C(=O)[O-])=C(C[n+]3ccccc3)CS[C@H]12 | - | - | - | MIC | - | Isolate 1 | >16 µg/mL
CCc1cc(C(N)=S)ccn1 | - | - | - | Mean MIC | - | H37Ra | 1.02 µg/mL
CC1(C)[C@H](C(=O)O)N2C(=O)C[C@H]2S1(=O)=O | - | - | - | MIC | - | H37Ra | >16 µg/mL
Cc1cn2c(C(=O)NCc3ccc(S(F)(F)(F)(F)F)cc3)c(C)nc2s1 | - | - | resazurin | MIC90 | - | H37Rv | <2 µM
CCC(C)OC(=O)N1CCN(c2nc3nc(N4CCCCC4)ccc3cc2-c2ccccc2)CC1 | - | - | - | MIC | - | H37Rv | >6.25 µg/mL
Nc1ccc(C(=O)O)c(O)c1 | - | - | - | Mean MIC | - | H37Ra | >2 µg/mL
CCc1nc2ccc(Cl)cn2c1C(=O)NCc1ccc(S(F)(F)(F)(F)F)cc1 | - | - | resazurin | MIC90 | - | H37Rv | <2 µM
COc1ccc2c(c1)OC[C@@H]1c3cc(NS(=O)(=O)c4ccccc4)cc(OCc4ccccc4)c3O[C@H]21 | 12.5 µg/mL | - | BACTEC | inhibition | - | H37Rv | 14%
COc1ccc2c(N/N=C/c3ccc(OC)c4ccccc34)ccnc2c1 | 12.5 µg/mL | VERO | - | inhibition | - | H37Rv | 100%
C[C@@H](O)[C@H]1C(=O)N2C(C(=O)O)=C(SCCN=CN)C[C@H]12 | - | - | - | MIC | - | Isolate 2 | 4 µg/mL
C[C@@H]1CN(c2c(F)c(N)c3c(=O)c(C(=O)O)cn(C4CC4)c3c2F)C[C@H](C)N1 | - | - | - | MIC | - | 891868 | 0.1 µg/mL
CC(=O)NCC1CN(c2ccc(C(C)=O)cc2)C(=O)O1 | - | - | - | MIC | - | H37RV (INH-R) | 0.97 µg/mL
C/C=C/c1ccc2oc(-c3ccc(OC)c(OC)c3)c(C)c2c1 | - | - | resazurin / absorbance | MIC | - | Clinical isolate 49 | 3.9 µg/mL
O=C1N[C@@H]([C@@H]2CC[C@@H](Cl)CN2)C(=O)N[C@H]1[C@@H]1CC[C@@H](Cl)CN1 | - | - | BACTEC | MIC | - | H37Rv | ≥12.8 µg/mL
CCN1CCN(c2cc(-c3ccccc3)c3ccc(=O)[nH]c3n2)CC1 | 6.25 µg/mL | - | - | inhibition | - | H37Rv | 29%
COc1ccc(/C=N/Nc2cc(C)nc3ccc(C4CCCCC4)cc23)c2ccccc12 | 12.5 µg/mL | VERO | - | inhibition | - | H37Rv | 100%
O=c1ccc2c(-c3ccccc3)cc(N3CCCCC3)nc2[nH]1 | - | - | - | MIC | - | H37Rv | >6.25 µg/mL
Cc1cn2c(C(=O)NCc3ccc(N4CCN(C(=O)OCC(C)C)CC4)c(F)c3)c(C)nc2s1 | - | - | resazurin | MIC90 | - | H37Rv | <2 µM
COc1ccc2nc(-c3ccccc3)cc(N/N=C/c3ccc(NC(C)=O)cc3)c2c1 | - | VERO | - | MIC | - | H37Rv | 12.5 µg/mL
CC[C@H]1OC(=O)[C@H](C)[C@@H](O[C@H]2C[C@@](C)(OC)[C@@H](O)[C@H](C)O2)[C@H](C)[C@@H](O[C@@H]2O[C@H](C)C[C@H](N(C)C)[C@H]2O)[C@](C)(OC)C[C@@H](C)C(=O)[C@H](C)[C@@H](O)[C@]1(C)O | - | - | - | Mean MIC | - | H37Rv | 26 µg/mL
COc1ccccc1NC(=O)C1=C(C)NC(C)=C(C(=O)Nc2ccccc2OC)C1c1cccc(Cl)c1 | - | - | - | MIC | - | H37Rv | >6.25 µg/mL
Cc1ccc2nc(CN3CCCC(O)C3)cc(=O)n2c1 | - | - | resazurin | MIC bound | - | H37Rv | >6.25 µg/mL
COc1ccc2nc(-c3ccccc3)cc(NN)c2c1 | 12.5 µg/mL | VERO | - | inhibition | - | H37Rv | 99%
C=C1C(=O)OC(CCCCC)C1C(=O)O | - | - | BACTEC | MIC | - | H37Rv | ≥12.5 µg/mL
O=c1ccc2c(-c3ccccc3)cc(N3CCN(c4ccccc4)CC3)nc2[nH]1 | 6.25 µg/mL | - | - | inhibition | - | H37Rv | 32%
CO[C@H]1/C=C/O[C@@]2(C)Oc3c(C)c(O)c4c(O)c(c(/C=N/N5CCN(C)CC5)c(O)c4c3C2=O)NC(=O)/C(C)=C\C=C\[C@H](C)[C@H](O)[C@@H](C)[C@@H](O)[C@@H](C)[C@H](OC(C)=O)[C@@H]1C | - | - | - | Mean MIC | - | H37Ra | 0.005 µg/mL
CC1=C(C(=O)Nc2ccc(F)c(Cl)c2)C(c2cccc(Br)c2)C(C(=O)Nc2ccc(F)c(Cl)c2)=C(C)N1 | - | - | - | MIC | - | H37Rv | >6.25 µg/mL
CN(C)C(=S)S(=O)(=O)CCCCS(=O)(=O)C(=S)N(C)C | - | - | BACTEC | MIC bound | - | H37Rv | ≤128 µg/mL
CC(=O)O[C@H]1C[C@@]2(C)[C@@H](C[C@@H](O)[C@H]3[C@@]4(C)CC[C@@H](O)[C@@H](C)[C@@H]4CC[C@@]32C)/C1=C(\CCC=C(C)C)C(=O)O | - | - | - | Mean MIC | - | H37Ra | 3.5 µg/mL
COc1cccc(/C=N/N=C(\N)c2ccncc2)c1OC | - | - | - | MIC | - | 1054 | 256 µg/mL
COc1ccc2c(NN)cc(C)nc2c1 | - | VERO | - | MIC | - | H37Rv | 12.5 µg/mL
CN1[C@@H]2CC(OC(=O)[C@H](CO)c3ccccc3)C[C@H]1[C@@H]1O[C@@H]12 | - | - | BACTEC | MIC bound | - | H37Rv | >12.8 µg/mL
COc1ccc(/C=N/Nc2ccnc3cc(Cl)cc(Cl)c23)c2ccccc12 | 12.5 µg/mL | VERO | - | inhibition | - | H37Rv | 10%
O=Nc1c(-c2cccc([N+](=O)[O-])c2)nc2cnccn12 | 6.25 µg/mL | - | resazurin | inhibition | - | H37Rv | 99%
COc1cc(/C=N/N=C(\N)c2ccncc2)cc(OC)c1 | - | - | - | MIC | - | 1481 | 256 µg/mL
O=C(O)c1cc(=O)c2cc3c(=O)cc(C(=O)O)[nH]c3c(Cl)c2[nH]1 | 12.5 µg/mL | - | BACTEC | inhibition | - | H37Rv | 17%
N/C(=N\N=C\c1ccccc1Cl)c1ccncc1 | - | - | - | MIC | - | 1054 | 8 µg/mL
Cn1c(COC(=O)Nc2ccc(N(CCCl)CCCl)cc2)cnc1[N+](=O)[O-] | - | - | resazurin | MIC bound | - | H37Rv | >6.25 µg/mL
N/C(=N\N=C\c1ccccc1)c1ccncc1 | - | - | - | MIC | - | 1054 | 32 µg/mL
Cc1ccn2c(C(=O)NCc3ccc(N4CCCN(c5ccc(S(F)(F)(F)(F)F)cc5)CC4)cc3)c(C)nc2c1 | - | - | resazurin | MIC90 | - | H37Rv | <2 µM